Anti-infective test results gathered from many reports (values: NIAID ChemDB through PubChem).

Shared fields: tests in culture; species: Mycobacterium tuberculosis

MIC bound comes from a single tested concentration.

structure | strain | read-out | changes | tested at | read by | value
O=C1NC(=Nc2ccc(Cl)cc2Cl)N/C1=C\c1c(Cl)cccc1Cl | H37Rv | MIC |  |  |  | >12.5 µg/mL
C/C=C1/C(=O)O[C@]23C=C[C@@H]4C(C(=O)OC)=CO[C@H](O[C@@H]12)[C@@H]43 | MDR1 clinical isolate | MIC |  |  | MTT | 1.3 µg/mL
COc1cccc(/C=c2\[nH]c(=O)/c(=C\c3cccc(OC)c3OC)[nH]c2=O)c1OC | H37Rv | inhibition |  | 12.5 µg/mL | BACTEC | -5%
NC[C@H]1O[C@H](O[C@H]2[C@H](O)[C@@H](O[C@H]3O[C@H](CO)[C@@H](O)[C@H](N)[C@H]3O)[C@H](N)C[C@@H]2N)[C@H](N)C[C@@H]1O | H37Ra | Median MIC |  |  |  | 8 µg/mL
COc1c(C)c2c3c4c1C(=O)C(=CC4=O)NC(=O)/C(C)=C\C=C\[C@H](C)[C@@H]1OC(C)(C)O[C@@H]([C@@H](C)[C@H](OC(C)=O)[C@H](C)[C@@H](OC)/C=C/O[C@@](C)(O2)C3=O)[C@@H]1C | H37Rv | MIC |  |  | BACTEC | 12.5 µg/mL
CO[C@H]1/C=C/O[C@@]2(C)Oc3c(C)c(O)c4c(O)c(c(/C=N/N5CCN(C)CC5)c(O)c4c3C2=O)NC(=O)/C(C)=C\C=C\[C@H](C)[C@H](O)[C@@H](C)[C@@H](O)[C@@H](C)[C@H](OC(C)=O)[C@@H]1C |  | MIC99 | 526Arg |  |  | >640 µg/mL
CN[C@@H]1[C@H](O[C@H]2[C@H](O[C@H]3[C@H](O)[C@@H](O)[C@H](N=C(N)N)[C@@H](O)[C@@H]3N=C(N)N)O[C@@H](C)[C@]2(O)C=O)O[C@@H](CO)[C@H](O)[C@H]1O | Isolate I | MIC |  |  |  | >2 µg/mL
CC(=O)NNc1ccc([N+](=O)[O-])cn1 | H37Rv | inhibition |  | 12.5 µg/mL | BACTEC | 8%
CC1COc2c(N3CCN(C)CC3)c(F)cc3c(=O)c(C(=O)O)cn1c23 | 100 isolates | MIC50 |  |  |  | 2 µg/mL
O=C1NC(=NCc2ccc(Cl)cc2)N/C1=C\c1c(Cl)cccc1Cl | H37Rv | MIC |  |  |  | >12.5 µg/mL
NC(=O)c1cnccn1 | Isolate 97-553 | MIC |  |  |  | 100 µg/mL
COC(=O)C1c2ccccc2CC(=O)N1NC(=O)c1ccccc1 | H37Rv | MIC bound |  |  | BACTEC | >12.5 µg/mL
CN1CCN(c2cc3c(cc2F)c(=O)c(C(=O)O)cn3-c2ccc([N+](=O)[O-])cc2F)CC1 | H37Rv | inhibition |  | 6.25 µg/mL | BACTEC | 0%
COc1cc(O)c2c(c1)C(=O)c1cc3c(c(O)c1C2=O)C(OC1OC(C)C(O)C(O)C1OC)C(OC)C(C)(O)C3=O | H37Rv | inhibition |  | 12.5 µg/mL | BACTEC | 86%
CC[C@@H](C)N1CCN(c2cc(=O)c3nc4c(oc3c2)c2c(=O)c3c(O)c(C)c5c(c34)=C(O)[C@@](C)(O/C=C/[C@H](OC)[C@@H](C)[C@@H](OC(C)=O)[C@H](C)[C@H](O)[C@H](C)[C@@H](O)[C@@H](C)/C=C/C=C(/C)C(=O)N2)O5)CC1 | 16 strains (rifampicin-susceptible) | MIC90 |  |  |  | 1.56 µg/mL
CC(C)=CCC1C(=O)C(CC=C(C)C)(CC=C(C)C)C(O)C(C(=O)C(C)C)C1O | Isolate K | MIC |  |  |  | 30.5 µg/mL
CCCCCc1cc(OC)c2ccccc2n1 | MT9 | MIC |  |  |  | 12.5 µg/mL
COc1cc(C2C(C(=O)Nc3ccccc3F)=C(C)NC(C)=C2C(=O)Nc2ccccc2F)cc(OC)c1OC | H37Rv | MIC |  |  |  | >6.25 µg/mL
Cc1cc(C)c2c(=O)n(CC(O)CN3CCCCC3)sc2n1 | H37Rv | EC50 |  |  |  | >12.5 µg/mL
CC1=C(C(=O)Nc2cccc(C(F)(F)F)c2)C(c2cccc(Br)c2)C(C(=O)Nc2cccc(C(F)(F)F)c2)=C(C)N1 | H37Rv | MIC |  |  |  | >6.25 µg/mL
CC(C)(C)C1CCc2c(sc3nc(SCc4ccon4)nc(N)c23)C1 | H37Rv | MIC |  |  | MTT / visual reading | 25 µg/mL
Nc1c(C(=O)Nc2ccccc2)[n+]([O-])c2ccccc2[n+]1[O-] | ETA-R | MIC |  |  |  | 12.5 µg/mL
O=[N+]([O-])c1ccc(CN2CCC3(CC2)CCN(c2ccc(C(F)(F)F)cc2)CC3)o1 | Clinical Isolate 16995 | MIC90 | INH RFP resistant |  | resazurin | >10 µg/mL
Nc1ccc(C(=O)O)c(O)c1 | H37Ra | Mean MIC |  |  |  | >2 µg/mL
C/C(=N/NC(=S)N1CCC(c2ccccc2)CC1)c1nccnc1C | EMB-R | MIC |  |  |  | 12.5 µg/mL
CC(C)(C)c1ccc(N2CCN(Cc3ccc([N+](=O)[O-])o3)CC2)cc1 | Clinical Isolate 16995 | MIC90 | INH RFP resistant |  | resazurin | 2.12 µg/mL
Nc1ccc(N=Nc2cccc3c2Oc2ccccc2O3)c(N)n1 | H37Rv | inhibition |  | 12.5 µg/mL | BACTEC | 55%
NC[C@H]1O[C@H](O[C@H]2[C@H](O)[C@@H](O[C@H]3O[C@H](CO)[C@@H](O)[C@H](N)[C@H]3O)[C@H](N)C[C@@H]2N)[C@H](O)[C@@H](O)[C@@H]1O | H37Ra | Median MIC |  |  |  | 2.5 µg/mL
COc1ccc(CCC2CCc3ccccc3N2C)cc1OC | MT10 | MIC |  |  |  | >100 µg/mL
O=C1NC(=Nc2ccccc2Cl)N/C1=C\c1ccccc1Cl | H37Rv | MIC |  |  |  | >12.5 µg/mL
Cc1c2sc3ccccc3nc-2c2ccccc2c1=O | H37Rv | MIC bound |  |  | BACTEC | ≤12.5 µg/mL
CCOC(=O)Cn1sc2nc(C)cc(C)c2c1=O | H37Rv | EC50 |  |  |  | <12.5 µg/mL
CCCN1CCN(c2cc(=O)c3nc4c(oc3c2)c2c(=O)c3c(O)c(C)c5c(c34)=C(O)[C@@](C)(O/C=C/[C@H](OC)[C@@H](C)[C@@H](OC(C)=O)[C@H](C)[C@H](O)[C@H](C)[C@@H](O)[C@@H](C)/C=C/C=C(/C)C(=O)N2)O5)CC1 | 16 strains (rifampicin-susceptible) | MIC50 |  |  |  | ≤0.0125 µg/mL
COc1ccc(C2C(C(=O)Nc3cc(C)ccc3C)=C(C)NC(C)=C2C(=O)Nc2cc(C)ccc2C)cc1OC | H37Rv | MIC |  |  |  | >6.25 µg/mL
c1cc2c(s1)CCOC21CCN(Cc2ccc3c(c2)OCCO3)CC1 | H37Rv | fold resistance | MmpL3: Phe644Cys |  | fluorescence | 8.3
O=C1NC(Nc2ccc(Cl)cc2)=N/C1=C\c1ccc(Cl)cc1Cl | H37Rv | MIC |  |  |  | <12.5 µg/mL
CC(C)(C)C1CCc2c(sc3nc(SCc4ccccn4)nc(N)c23)C1 | H37Rv | MIC |  |  | MTT / visual reading | 25 µg/mL
CN[C@@H]1[C@H](O[C@H]2[C@H](O[C@H]3[C@H](O)[C@@H](O)[C@H](N=C(N)N)[C@@H](O)[C@@H]3N=C(N)N)O[C@@H](C)[C@]2(O)C=O)O[C@@H](CO)[C@H](O)[C@H]1O | H37Rv | Median MIC |  |  |  | 0.29 µg/mL
CC1=C(C(=O)Nc2cccc(C)c2)C(c2cccc([N+](=O)[O-])c2)C(C(=O)Nc2cccc(C)c2)=C(C)N1 | H37Rv | MIC |  |  |  | >6.25 µg/mL
C[C@@H]1CN(c2c(F)c(N)c3c(=O)c(C(=O)O)cn(C4CC4)c3c2F)C[C@H](C)N1 | 100 isolates | MIC90 |  |  |  | 2 µg/mL
CN[C@@H]1[C@H](O[C@H]2[C@H](O[C@H]3[C@H](O)[C@@H](O)[C@H](N=C(N)N)[C@@H](O)[C@@H]3N=C(N)N)O[C@@H](C)[C@]2(O)C=O)O[C@@H](CO)[C@H](O)[C@H]1O | Isolate TN6515 | MIC |  |  |  | 0.2 µg/mL
O=[N+]([O-])c1ccc(CN2CCC3(CC2)CCN(c2cccc(C(F)(F)F)c2)CC3)o1 | H37Rv | MIC90 |  |  | resazurin | 0.035 µg/mL
Cc1csc(CSc2nc(N)c3c4c(sc3n2)CC(C(C)(C)C)CC4)n1 | H37Rv | MIC |  |  | MTT / visual reading | 50 µg/mL
COc1cc2c(c(OC)c1O)C(=O)CO2 | H37Rv | inhibition |  | 12.5 µg/mL | BACTEC | -8%
CCC1CN(c2c(F)cc3c(=O)c(C(=O)O)cn(C4CC4)c3c2OC)CCN1 | Isolate TN7834 | MIC |  |  |  | 0.1 µg/mL
NC(=O)C1CCN(N=Nc2c(-c3ccccc3)n[nH]c2-c2ccccc2)CC1 | H37Rv | inhibition |  | 6.25 µg/mL | resazurin | 98%
Nc1ccc(-n2cc(C(=O)O)c(=O)c3cc(F)c(N4CCNCC4)cc32)c(F)c1 | H37Rv | inhibition |  | 6.25 µg/mL | BACTEC | 100%
CC1=C(C(=O)Nc2ccc(F)cc2)C(c2cccc(Cl)c2)C(C(=O)Nc2ccc(F)cc2)=C(C)N1 | H37Rv | MIC |  |  |  | >6.25 µg/mL
O=[N+]([O-])c1ccc(CN2CC3CN(c4ccccc4)CC3C2)o1 | H37Rv | MIC90 |  |  | resazurin | 0.031 µg/mL
O=C1C(=O)c2ccc3c(c2-c2cc4c(cc21)OCO4)OCO3 | H37Rv | MIC bound |  |  | resazurin | >6.25 µg/mL
CC(C)=CCOc1c2ccoc2cc2oc(=O)ccc12 | H37Rv clinical isolate CRY4 | MIC100 | Ethambutol-resistant |  | resazurin | 100 µg/mL
CO[C@H]1/C=C/O[C@@]2(C)Oc3c(C)c(O)c4c(=O)c(c5oc6cc(N7CCN(CC(C)C)CC7)cc(=O)c6nc5c4c3=C2O)NC(=O)/C(C)=C\C=C\[C@H](C)[C@H](O)[C@@H](C)[C@@H](O)[C@@H](C)[C@H](OC(C)=O)[C@@H]1C | TN801 | MIC |  |  |  | <1 µg/mL
O=C(O)c1cn(-c2ccc([N+](=O)[O-])cc2)c2cc(N3CCCCC3)c(F)cc2c1=O | H37Rv | inhibition |  | 6.25 µg/mL | BACTEC | 6%
Cc1cc2nc3c(=O)n(C)c(=O)nc-3n(-c3ccc(Cl)cc3)c2cc1C | H37Rv | inhibition |  | 12.5 µg/mL | BACTEC | 0%
CC(C)(C)C1CCc2c(sc3nc(SCc4ccccc4)nc(N)c23)C1 | H37Rv | MIC |  |  | MTT / visual reading | >200 µg/mL
NNC(=O)c1ccncc1 | Isolate I | MIC |  |  |  | >0.2 µg/mL
NC1=NS(=O)(=O)Nc2nc(-c3ccc([N+](=O)[O-])o3)[nH]c21 | H37Rv | MIC bound |  |  | resazurin | >6.25 µg/mL
Cc1cc(C)c2c(=O)n(CO)sc2n1 | H37Rv | MIC |  |  |  | >12.5 µg/mL
CCCCCCCCc1ccc(Oc2ccccc2)c(O)c1 | HN335 | MIC99 |  |  |  | 3.1 µg/mL
COc1c2c(c(OC)c3c1c(=O)c1ccccc1n3C)OCO2 | H37Rv | MIC |  |  | BACTEC | ≥128 µg/mL
CC(C)(C)c1ccc(N2CCC3(CCN(Cc4ccc([N+](=O)[O-])o4)CC3)CC2)cc1 | Clinical Isolate 16833 | MIC90 | INH RFP resistant |  | resazurin | 4.25 µg/mL
Cc1cc(C)c2c(=O)n(-c3ccccc3C)c(=S)n(-c3ccccc3C)c2n1 | H37Rv | MIC bound |  |  | BACTEC | >12.5 µg/mL
O=C(O)c1cn(-c2ccc([N+](=O)[O-])cc2F)c2cc(N3CCNCC3)c(F)cc2c1=O | H37Rv | inhibition |  | 6.25 µg/mL | BACTEC | 37%
OC[C@@H](O)C(O)[C@@H](O)CO | H37Rv | MIC |  |  | BACTEC | ≥128 µg/mL
COc1ccccc1C1C(C(=O)Nc2ccc(F)cc2)=C(C)NC(C)=C1C(=O)Nc1ccc(F)cc1 | H37Rv | MIC |  |  |  | >6.25 µg/mL
C=C(C(=O)OC)N1C(=O)C[C@@H](C)C1=O | H37Rv | inhibition |  | 12.5 µg/mL | BACTEC | 27%
Cc1cc(C)c2c(=O)n(CC(O)CN3CCc4ccccc4C3)sc2n1 | H37Rv | MIC |  |  |  | >12.5 µg/mL
O=C(CNC(=O)C(CCC(=O)OCc1ccccc1)NC(=O)OCc1ccccc1)NCC(=O)NC(CO)C(=O)NCC(=O)Oc1ccc([N+](=O)[O-])cc1 | H37Rv | MIC |  |  | BACTEC | ≥12.8 µg/mL
NNC(=O)c1ccncc1 | Isolate TN6515 | MIC |  |  |  | 0.06 µg/mL
O=C([O-])C1=NN(c2ccc(S(=O)(=O)[O-])cc2)C(=O)C1N=Nc1ccc(S(=O)(=O)[O-])cc1.[Na+].[Na+].[Na+] | H37Rv | MIC |  |  | BACTEC | ≥12.8 µg/mL
Cc1cc(C)c2c(n1)S(=O)(=O)N(CCO)C2=O | H37Rv | inhibition |  | 12.5 µg/mL |  | 29%
O=[N+]([O-])c1ccc(CN2CCC3(CC2)CCN(c2ccc(OC(F)(F)F)cc2)CC3)o1 | Clinical Isolate 16833 | MIC90 | INH RFP resistant |  | resazurin | 4.95 µg/mL
CCCCCCc1ccc(Oc2ccccc2)c(O)c1 | W210 | MIC99 |  |  |  | 2.9 µg/mL

Fold resistance: result on the changed form divided by that on wild type. Blank or dashed fields: not listed here. ECn: concentration that inhibits the pathogen or its effect by n%. Percent inhibition refers to the dose given; in toxicity tests it is the harm to the cells. A number after MIC or MFC names an inhibition level or a share of isolates. Lines come from different laboratories, so protocols vary.